Activity calls are given as the source filed them. No cut-off for these calls is given here.
What follows are compounds tested on Leishmania donovani (assay: In vitro inhibitory activity against Leishmania donovani; Inactive).
`CC(=O)OCC(CCl)OC(COC(C)=O)n1cnc2c(N)ncnc21` (configuration not stated) was tested, and the Activity was “inactive”.
With `CCSCC(CO)OC(CO)n1cnc2c(N)ncnc21` (configuration not stated) the Activity was “inactive”.
`CCSCC(COC(C)=O)OC(COC(C)=O)n1cnc2c(N)ncnc21` (configuration not stated) was tested, and the Activity was “inactive”.
In the case of `CC(=O)OCC(CO)OC(COC(C)=O)n1cnc2c(N)nc(N)nc21` (configuration not stated), the Activity is reported as “inactive”.
In the case of `CCC(COC(C)=O)OC(COC(C)=O)n1cnc2c(N)ncnc21` (configuration not stated), the Activity is reported as “inactive”.
With `CC(=O)OCC(CO)OC(COC(C)=O)n1cnc2c(F)nc(N)nc21` (configuration not stated) the Activity was “inactive”.

These compounds were tested on Escherichia coli (assay: Inhibition of Escherichia coli threonine synthase expressed as inactivation constant; d: indicates competitive inhibitor).
`N[C@@H](CSCP(=O)(O)O)C(=O)O` was tested, and the K inact was “d”.

Source: ChEMBL document CHEMBL1121863
